In data set [1] the test system is iron hydrogenase from S. obliquus. Briefly: Biochemical data of purified iron hydrogenase, hydrogen evolution assay with reduced methyl viologen. Set-up: species or system Scenedesmus obliquus. Particulars: purified enzyme. The procedure: The in vitro hydrogenase activity was measured by using a Hewlett Packard (HP 5890, Series II) gas chromatograph, equipped with a thermal conductivity detector and a molecular sieve column. Methyl viologen reduced by sodium dithionite was used as an electron donor. 1 unit is defined as the amount of hydrogenase evolving 1 mmol of molecular hydrogen (H2) per minute at 25° C.
40-liter cultures of Scenedesmus obliquus were grown heterotrophically. After centrifugation (10 min, 5000×g) the pellet we re-suspended in 200 ml TAP medium. The cells were anaerobically adapted by flushing the solution with argon for 1 hour in the dark. All further purification steps were performed in an anaerobic chamber (Coylab, Ann Arbor, Mich., USA). The cells were disrupted in a 50 mM Tris/HCl, buffer pH 8.0, 10 mM sodium dithionite by vortexing 3 min with glass beads. The further purification steps were made as described hereinbelow for the isolation of the Fe-hydrogenase of Chlamydomonas reinhardti. Automated Edman degradation of the N-terminal site of the protein was performed with an Applied Biosystem model 477A sequencer with online analysator model 120 A.
The N-terminal sequence of HydA was determined by Edman degradation.

Data set [2] has as its system iron hydrogenase from C. reinhardtii. Described as above. Particulars: purified enzyme. More on the design: species or system Chlamydomonas reinhardtii. The procedure:
Hydrogenase activity of C. reinhardtii was determined in vitro with reduced methyl viologen using a gas chromatograph (Hewlett Packard 5890 Å Series II, column: molecular Sieve 5 Å, Mesh 60/80). The assay, containing in a final volume of 2 mL Pipes pH 6.8 (20 mM), Na2S2O4 (20 mM), MV (5 mM), was incubated anaerobically at 25° C. for 20 min. One unit is defined as he amount of hydrogenase evolving 1 μmol H2 per minute.
Cells from a 40-L culture of C. reinhardtii were harvested by ultra filtration through an Amicon Ultrafiltration System DC 10 LA, with a hollow-fiber filter. The pellet was resuspended in 200 mL TAP medium. After anaerobic adaptation by flushing the solution with argon for 1 h in the dark, all steps were performed under strictly anaerobic conditions. The isolated Fe-hyrogenase was chemically cleaved by cyanogen brormide (CNBr). […]
To verify that the hydA ORF encodes the Fe-hydrogenase of C. reinhardtii, the enzyme was purified according to Happe and Naber (Eur. J. Biochem. 214,475-481 (1993)). […] After proteolytic digestion with cyanogen bromide, four bands of 4, 8, 9 and 11 kDa were detected after SDSIPAGE separation (data not shown). […] The heterologous expressed protein was detected using antibodies raised against the Fe-hydrogenase. […] (ibid) who also detected no H2-production of the recombinant expressed Fe-hydrogenase from Desulfovibrio vulgaris in E. coli cells. […]

B1: S. obliquus iron hydrogenase: monomeric iron hydrogenase (HydA) of 44.5 kDa from Scenedesmus obliquus, SEQ. ID. NO. 4; recombinant form expressed in E. coli (protein, listed as Scenedesmus obliquus)
chain: MPEWQPGGRYAVSVRPPVNRRAVVAAERRRLVVRAAGPTAECDCPPAPAPKAPHWQQTLDELAKPKEQRKVMIAQIAPAVRVAIAETMGLNPGDVTVGQMVTGLRMLGFDYVFDTLFGADLTIMEEGTELLHRLQDHLEQHPNKEEPLPMFTSCCPGWVAMVEKSNPELIPYLSSCKSPQMMLGAVIKNYFAAEAGAKPEDICNVSVMPCVRKQGEADREWFNTTGAGGANVDHVMTTAELGKIFVERGIKLNDLQETPFDNPVGEGSGGVLFGTTGGVMEAALRTVYEVVTQKPLDRIVFEDVRGLEGIKESTLHLTPGPTSPFKAFAGADGTGITLNIAVANGLGNAKKLIKQLAAGESKYDFIEVMACPGGCIGGGGQPRSADKQILQKRQAAMYDLDERAVIRRSHENPLIGALYEKFLGEPNGHKAHELLHTHYVAGGVPDEK
Consider B1, for which, in data set [1], the Temperature optimum is 60 °C and the pH optimum came out at 7.3.

B2: C. reinhardtii iron hydrogenase: Fe-hydrogenase HydA from Chlamydomonas reinhardtii, mature polypeptide of 441 amino acids, SEQ. ID. NO. 5 precursor (protein)
chain: AAPAAEAPLSHVQQALAELAKPKDDPTRKHVCVQVAPAVRVAIAETLGLAPGATTPKQLAEGLRRLGFDEVFDTLFGADLTIMEEGSELLHRLTEHLEAHPHSDEPLPMFTSCCPGWIAMLEKSYPDLIPYVSSCKSPQMMLAAMVKSYLAEKKGIAPKDMVMVSIMPCTRKQSEADRDWFCVDADPTLRQLDHVITTVELGNIFKERGINLAELPEGEWDNPMGVGSGAGVLFGTTGGVMEAALRTAYELFTGTPLPRLSLSEVRGMDGIKETNITMVPAPGSKFEELLKHRAAARAEAAAHGTPGPLAWDGGAGFTSEDGRGGITLRVAVANGLGNAKKLITKMQAGEAKYDFVEIMACPAGCVGGGGQPRSTDKAITQKRQAALYNLDEKSTLRRSHENPSIRELYDTYLGEPLGHKAHELLHTHYVAGGVEEKDEKK
In data set [2], B2 had a Temperature optimum of 60 °C and a pH optimum of 6.9.

The values above are taken from patent US6858718B1, “Hydrogen production” (Melis Energy, priority 2001, dated 2005).
